Compound potency records, mixed from different reports. Data source: NIAID ChemDB in PubChem.

All rows: growth or infection tests; species: HIV-1; cells: PBMC; read-out: EC50

Conditions beyond the fields shown may differ between rows. ECn is the concentration giving n% inhibition of infection, replication or growth. An empty or dashed field is not shown.

structure,strain or isolate,changes,read by,setting,result
Cc1cn([C@H]2C[C@H](N=[N+]=[N-])[C@@H](CO)O2)c(=O)[nH]c1=O,HXB2,-,p24,-,<0.005 µg/mL
CCOP(=O)(CO[C@H]1C[C@@H](n2cnc3c(N)ncnc32)C(F)(F)C1)OCC,LAI,-,RT activity,-,42 µM
CC(C)(C)NC(=O)[C@@H]1C[C@@H]2CCCC[C@@H]2CN1C[C@@H](O)[C@H](Cc1ccccc1)NC(=O)[C@H](CC(N)=O)NC(=O)c1ccc2ccccc2n1,TM,MDR,p24,-,0.07 µM
S=C(NCCc1ccc(Br)s1)Nc1ccc(Br)cn1,IIIB,-,-,-,0.05 µM
Nc1ncnc2c1ncn2[C@@H]1OC[C@](CO)(CCP(=O)(O)O)[C@@H]1F,LAI,-,MTT,-,19.2 µM
CC(C)[C@H](NC(=O)c1ccc2ccccc2n1)C(=O)N[C@@H](Cc1ccccc1)[C@H](O)CN1CC[C@@H](OCc2ccncc2)C[C@H]1C(=O)NC(C)(C)C,VR949,-,p24,-,0.011 µM
COC(=O)N[C@H](C(=O)N[C@@H](Cc1ccccc1)[C@@H](O)CN(Cc1ccc(-c2ccccn2)cc1)NC(=O)[C@@H](NC(=O)OC)C(C)(C)C)C(C)(C)C,ERS104pre,-,p24,-,0.0025 µM
COc1ccc(S(=O)(=O)N(CC(C)C)C[C@@H](O)[C@H](Cc2ccc(OC)c(Cl)c2)NC(=O)O[C@H]2CO[C@H]3OCC[C@H]32)cc1,97ZA003,-,p24 / luminescence,-,0.0004 µM
Cc1cc(=O)c2ccc(N=C=S)cc2o1,89.6,-,p24 / ELISA,-,0.164 µM
Nc1ncnc2c1ncn2CCOCP(=O)(O)O,LAI,-,RT activity,-,4.4 µM
Cc1cn([C@H]2C[C@H](N=[N+]=[N-])[C@@H](CO)O2)c(=O)[nH]c1=O,JSL,MDR,p24,-,0.3 µM
CCCc1cc(=O)oc2c3c(c4c(c12)OC(C)(C)C=C4)O[C@H](C)[C@@H](C)[C@@H]3O,CLADE A,-,RT activity,-,0.07 µM
CC[C@H](C)[C@H](NC(=O)C(=O)OC[C@H]1O[C@@H](n2cc(C)c(=O)[nH]c2=O)C[C@@H]1N=[N+]=[N-])C(=O)O,-,-,-,-,0.035 µg/mL
Cc1ccnc2c1NC(=O)c1cccnc1N2C1CC1,TEKI(SI),-,RT activity,-,0.1 µM
Cc1cn([C@H]2C=C[C@@H](CO)O2)c(=O)[nH]c1=O,MM,MDR,p24,-,0.09 µM
Cc1cn([C@H]2C[C@H](N=[N+]=[N-])[C@@H](COC(=O)C(=O)N[C@@H](CC(C)C)C(=O)O)O2)c(=O)[nH]c1=O,-,-,-,-,0.01 µg/mL
Nc1nc2c(ncn2[C@H]2CO[C@@H](CO)O2)c(=O)[nH]1,3TC-resistant (RT M184V) Clinical isolate,RT-M184V,p24,-,0.03 µM
Cc1ccc(NC(=S)NCCc2ccc(Br)s2)nc1,IIIB,-,-,-,0.16 µM
C=CCN(C(=O)OCc1ccc([N+](=O)[O-])cc1)C1CCN(CC[C@](C)(CN(C)S(=O)(=O)c2ccccc2)c2ccccc2)CC1,BaL,-,p24,-,<0.013 µM
Nc1nc2c(ncn2[C@@H]2OC[C@@](/C=C/P(=O)(O)O)(CO)[C@@H]2F)c(=O)[nH]1,LAI,-,MTT,-,73 µM
COc1ccc(CN(CCN2CCCCC2)CC2CCCN(C3CCCC3)C2)cc1O,NL4-3,-,p24,-,4.6 µM
CC(C)(C)NC(=O)[C@@H]1C[C@@H]2CCCC[C@@H]2CN1C[C@@H](O)[C@H](Cc1ccccc1)NC(=O)[C@H](CC(N)=O)NC(=O)c1ccc2ccccc2n1,HXB2,-,p24,-,0.006 µM
Cc1cc(C#N)cc(C)c1Oc1nc(Nc2ccc(C#N)cc2)nc(N)c1Br,92BR014,-,absorbance,-,0.0031 µM
Oc1cccc(CN(CCN2CCCCC2)CC2CCCN(C3CCCC3)C2)c1,NL4-3,-,p24,-,3 µM
CC(C)(C)NC(=O)[C@@H]1CN(Cc2cccnc2)CCN1C[C@@H](O)C[C@@H](Cc1ccccc1)C(=O)N[C@H]1c2ccccc2C[C@H]1O,1617-1 NRTI resistant recombinant,RT-T69K K70G V75I F77L F116Y Q151M M184V,p24,-,0.0205 µM
O=C(O)[C@@H](C1CCCCC1)N1C[C@H](CN2CCC(CCCc3ccccc3)CC2)[C@@H](c2ccccc2)C1,BaL,-,p24,-,<0.093 µM
Cc1cccc(C)c1OCC(=O)N[C@@H](Cc1ccccc1)[C@@H](O)C[C@H](Cc1ccccc1)NC(=O)[C@H](C(C)C)N1CCCNC1=O,-,-,p24,"clinical isolate, multidrug-resistant",0.41 µM
O=C(NCc1ccc(F)cc1)c1nc(N2CCCCS2(=O)=O)c2cccnc2c1O,BaL,-,RT activity,-,0.003 µM
C[C@@H]1O[C@@H]2OCCC[C@@H]2[C@@H]1OC(=O)N[C@@H](Cc1ccccc1)[C@H](O)CN1C[C@H]2CCCC[C@H]2C[C@H]1C(=O)NC(C)(C)C,PR-L63P ERS104pre,-,p24,-,0.024 µM
CCCCN1C(=O)C(CC2CCCCC2)NC(=O)C12CCN(Cc1ccc3c(c1)OCCO3)CC2,TM,MDR,p24,-,>1 µM
COC(=O)[C@H](C)NP(=O)(OC[C@@H]1C=C[C@H](n2cc(C)c(=O)[nH]c2=O)O1)Oc1ccc(Br)cc1,G780-1 NRTI resistant,RT-M41L D67N K70R T215F K219Q,p24,-,0.035 µM
S=C(NCCc1ccc(Br)s1)Nc1ccccn1,IIIB,-,-,-,0.015 µM
CC(C)CN(C[C@@H](O)[C@H](Cc1ccccc1)NC(=O)O[C@H]1CCOC1)S(=O)(=O)c1ccc(N)cc1,TM,PR-L10I K14R R41K M46I I54V L63P A71V V82A L90M I93L,p24,-,0.48 µM
Nc1nc2c(ncn2[C@@H]2C[C@H](OCP(=O)(O)O)CC2(F)F)c(=O)[nH]1,LAI,-,RT activity,-,43 µM
CC(C)CN(C[C@@H](O)[C@H](Cc1ccccc1)NC(=O)O[C@H]1[C@H]2CCCO[C@H]2O[C@@H]1C)S(=O)(=O)c1ccc(N)cc1,TM,PR-L10I K14R R41K M46I I54V L63P A71V V82A L90M I93L,p24,-,0.26 µM
CCN(c1ncccc1NC(C)(C)C)C1CCN(C(=O)c2cc3cc(NS(C)(=O)=O)ccc3[nH]2)CC1,Isolate 472,-,p24,-,<0.18 µM
Cc1cc(/C=C/C#N)cc(C)c1Nc1ccnc(Nc2ccc(C#N)cc2)n1,92BR014,ZA-resistant mutant,absorbance,-,0.0009 µM
Nc1ncc(CN(CCN2CCCCC2)CC2CCCN(C3CCCC3)C2)cn1,NL4-3,-,p24,-,6.7 µM
CCCc1cc(=O)oc2c3c(c4c(c12)OC(C)(C)C=C4)O[C@@H](C)[C@H](C)[C@@H]3O,CLADE C,-,RT activity,-,0.09 µM
S=C(NCCc1ccc(Br)s1)Nc1ccc(Cl)cn1,IIIB,-,-,-,0.012 µM
O=c1[nH]cnc2c1ncn2[C@H]1CC[C@@H](CO)O1,MM,MDR,p24,-,3.9 µM
Nc1nc(NC2CC2)c2ncn([C@H]3C=C[C@@H](CO)C3)c2n1,Clinical isolate,PR-L10L/I K20R M36I I54V A71I/V V82A I84I/V L90M,p24,-,0.91 µM
Cc1nnc(C(C)C)n1C1C[C@H]2CC[C@@H](C1)N2CC[C@H](NC(=O)C1CCC(F)(F)CC1)c1ccccc1,CC1/85_NDC,-,p24 / ELISA,-,0.00054 µg/mL

Again, the opening 3 rows:

structure	strain or isolate	changes	read by	setting	result
Cc1cn([C@H]2C[C@H](N=[N+]=[N-])[C@@H](CO)O2)c(=O)[nH]c1=O	HXB2	-	p24	-	<0.005 µg/mL
CCOP(=O)(CO[C@H]1C[C@@H](n2cnc3c(N)ncnc32)C(F)(F)C1)OCC	LAI	-	RT activity	-	42 µM
CC(C)(C)NC(=O)[C@@H]1C[C@@H]2CCCC[C@@H]2CN1C[C@@H](O)[C@H](Cc1ccccc1)NC(=O)[C@H](CC(N)=O)NC(=O)c1ccc2ccccc2n1	TM	MDR	p24	-	0.07 µM